Measured values from patent US5869457A, “Modified proteins and their use for controlling viral infections” (Rijksuniversiteit Te Groningen, priority 1991, dated 1999).

Key:
influenza = influenza virus: fusion of viral membrane with erythrocyte ghosts, liposomes and cells (R15 dequenching); type: biochemical
[1] = human pharmacokinetics, antiviral concentrations (expected); type: in vivo; settings: intravenous, 1.5-15 mg/kg per day
HIV-2 (LAV-2ROD) = assay: anti-HIV-2 test (identical to the anti-HIV-1 test); type: cell-based
HIV-1 (strain HTLV-IIIB) = assay: anti-HIV-1 test: inhibition of virus-induced cytopathogenicity in MT-4 cells (MTT method); type: cell-based
Polio = type: cell-based, polio virus

## Aco-HSA: reaction product of human serum albumin and aconitic anhydride (anhydride of cis- or trans-prop-1-ene-1,2,3-tri-carboxylic acid)
influenza
  Inhibitory effect (IC50 μg/ml) on the replication of RNA viruses, influenza: 0.8 µg/mL
[1]
  antiviral concentrations in blood stream and lymphatic system of AIDS patients: long lasting antiviral concentrations will be attained
HIV-2 (LAV-2ROD)
  Inhibitory effect (IC50 μg/ml) on retroviruses, HIV-2: 5.9 µg/mL
HIV-1 (strain HTLV-IIIB); HIV-1, Table 1
  Inhibitory effect (IC50 μg/ml) on retroviruses, HIV-1: 0.025 µg/mL
HIV-1 (strain HTLV-IIIB); antiviral assay, HIV-1, MT-4 cells
  IC50, anti-HIV activity: 0.0056 µg/mL
HIV-1 (strain HTLV-IIIB); versus AZT
  times more active than AZT (anti-HIV): approximately 25 times
HIV-1 (strain HTLV-IIIB); versus Suc-HSA
  times more active than Suc-HSA (anti-HIV): 175 times
Polio
  Inhibitory effect (IC50 μg/ml) on the replication of RNA viruses, Polio: > 400 µg/mL
